Compound potency records, mixed from different reports. Data source: NIAID ChemDB in PubChem.

Shared fields: growth or infection tests; organism: HIV-1; read by: p24 / ELISA; measure: EC50

ECn is the concentration giving n% inhibition of infection, replication or growth. Conditions beyond the fields shown may differ between rows.

CC(C)C1=C2[C@H]3CC[C@@H]4[C@@]5(C)CC[C@H](OC(=O)[C@H]6C[C@@H](C(=O)O)C6(C)C)C(C)(C)[C@@H]5CC[C@@]4(C)[C@]3(C)CC[C@@]2([C@@H](O)CNCC(C)(C)NC(=O)c2ccc(O[C@@H]3CCOC3)cc2)CC1=O ; strain: 92HT599 ; cell line: MT-2 ; value: <1 µM
CC(C)C1=C2[C@H]3CC[C@@H]4[C@@]5(C)CC[C@H](OC(=O)[C@H]6C[C@@H](C(=O)O)C6(C)C)C(C)(C)[C@@H]5CC[C@@]4(C)[C@]3(C)CC[C@@]2(NC(=O)C(C)(C)NC(=O)c2ccc(Cl)cc2O[C@@H]2CCOC2)CC1=O ; strain: 92HT599 ; cell line: MT-2 ; value: <0.003 µM
COc1ccc(/C=C/C(=O)O[C@@]23[C@H](O)[C@@H](C)[C@@]4(O)[C@@H](C=C(CO)C[C@]5(O)C(=O)C(C)=C[C@@H]45)[C@@H]2C3(C)C)cc1OC(C)=O ; strain: IIIB ; cell line: C8166 ; value: 9.54 µM
Cc1cc(C(=O)NC(C)(C)C(=O)N[C@@]23CC[C@]4(C)[C@H](CC[C@@H]5[C@@]6(C)CC[C@H](OC(=O)[C@H]7C[C@@H](C(=O)O)C7(C)C)C(C)(C)[C@@H]6CC[C@]54C)C2=C(C(C)C)C(=O)C3)n[nH]1 ; strain: 92HT599 ; cell line: MT-2 ; value: <0.003 µM
CC(=O)O[C@@]12[C@H](OC(=O)/C=C/c3ccc4c(c3)OCO4)[C@@H](C)[C@@]3(O)[C@@H](C=C(CO)C[C@]4(O)C(=O)C(C)=C[C@@H]34)[C@@H]1C2(C)C ; strain: IIIB ; cell line: C8166 ; value: 0.0225 µM
CC(C)C1=C2[C@H]3CC[C@@H]4[C@@]5(C)CC[C@H](OC(=O)[C@H]6C[C@@H](C(=O)O)C6(C)C)C(C)(C)[C@@H]5CC[C@@]4(C)[C@]3(C)CC[C@@]2(NC(=O)C(C)(C)NC(=O)c2ccc(Cl)cc2OCCN2CCCC2)CC1=O ; strain: 92HT599 ; cell line: MT-2 ; value: <0.003 µM
CC(=O)OCC1=C[C@H]2[C@@H]3C(C)(C)[C@]3(OC(C)=O)[C@H](OC(=O)CCCCn3ccc(=O)n(CCCCC(=O)O[C@@H]4[C@@H](C)[C@@]5(O)[C@@H](C=C(COC(C)=O)C[C@]6(O)C(=O)C(C)=C[C@@H]56)[C@@H]5C(C)(C)[C@]45OC(C)=O)c3=O)[C@@H](C)[C@]2(O)[C@@H]2C=C(C)C(=O)[C@@]2(O)C1 ; strain: IIIB ; cell line: C8166 ; value: >200 µM
CC(C)C1=C2[C@H]3CC[C@@H]4[C@@]5(C)CC[C@H](OC(=O)[C@H]6C[C@@H](C(=O)O)C6(C)C)C(C)(C)[C@@H]5CC[C@@]4(C)[C@]3(C)CC[C@@]2([C@@H](O)CNC(=O)C(C)(C)NC(=O)c2ccc(Cl)cc2OC2CCNCC2)CC1=O ; strain: 92HT599 ; cell line: MT-2 ; value: <1 µM
CC/C=C\C/C=C\C/C=C\C/C=C\C/C=C\CCCC(=O)O[C@@H]1[C@@H](C)[C@@]2(O)[C@@H](C=C(COC(C)=O)C[C@]3(O)C(=O)C(C)=C[C@@H]23)[C@@H]2C(C)(C)[C@]12OC(C)=O ; strain: IIIB ; cell line: C8166 ; value: 0.0705 µM
CC(C)C1=C2[C@H]3CC[C@@H]4[C@@]5(C)CC[C@H](OC(=O)[C@H]6C[C@@H](C(=O)O)C6(C)C)C(C)(C)[C@@H]5CC[C@@]4(C)[C@]3(C)CC[C@@]2([C@@H](O)CNC(=O)c2cnn3cccnc23)CC1=O ; strain: 92HT599 ; cell line: MT-2 ; value: <1 µM
Cc1cc(C)cc(Cc2c(I)c(=O)[nH]c(=O)n2COCc2ccccc2)c1 ; strain: A17 ; changes: K103N/Y181C ; cell line: MT-4 ; value: 0.091 µM
CC(C)C1=C2[C@H]3CC[C@@H]4[C@@]5(C)CC[C@H](OC(=O)[C@H]6C[C@@H](C(=O)O)C6(C)C)C(C)(C)[C@@H]5CC[C@@]4(C)[C@]3(C)CC[C@@]2(CC(=O)NCc2ccc(CN3CCOCC3)cc2)CC1=O ; strain: 92HT599 ; cell line: MT-2 ; value: <1 µM
CC(=O)OCC1=C[C@H]2[C@@H]3C(C)(C)[C@]3(OC(C)=O)[C@H](OC(=O)CCCCn3ccc(=O)n(CCCOC(=O)[C@]45CCCC[C@H]4C4=CC[C@@H]6[C@@]7(C)CC[C@H](O)C(C)(C)[C@@H]7CC[C@@]6(C)[C@]4(C)CC5)c3=O)[C@@H](C)[C@]2(O)[C@@H]2C=C(C)C(=O)[C@@]2(O)C1 ; strain: IIIB ; cell line: C8166 ; value: >200 µM
CC(C)C1=C2[C@H]3CC[C@@H]4[C@@]5(C)CC[C@H](OC(=O)[C@H]6C[C@@H](C(=O)O)C6(C)C)C(C)(C)[C@@H]5CC[C@@]4(C)[C@]3(C)CC[C@@]2(CCNC(=O)CN2CCCCC2)CC1=O ; strain: 92HT599 ; cell line: MT-2 ; value: <1 µM
CCCCCCCCC(=O)O[C@@H]1[C@@H](C)[C@@]2(O)[C@@H](C=C(CO)C[C@]3(O)C(=O)C(C)=C[C@@H]23)[C@@H]2C(C)(C)[C@]12OC(=O)CCCCCCCC ; strain: IIIB ; cell line: C8166 ; value: 0.0046 µM
Cc1cn([C@H]2C[C@H](N=[N+]=[N-])[C@@H](CO)O2)c(=O)[nH]c1=O ; strain: RF ; cell line: C8166 ; value: 0.08 µg/mL
CC1=C[C@H]2[C@@]3(O)[C@H](C)[C@@H](OC(=O)CCCCC4SCC5NC(=O)NC54)[C@]4(OC(=O)CCCCC5SCC6NC(=O)NC65)[C@H]([C@@H]3C=C(CO)C[C@]2(O)C1=O)C4(C)C ; strain: IIIB ; cell line: C8166 ; value: >200 µM
CC(C)C1=C2[C@H]3CC[C@@H]4[C@@]5(C)CC[C@H](OC(=O)[C@H]6C[C@@H](C(=O)O)C6(C)C)C(C)(C)[C@@H]5CC[C@@]4(C)[C@]3(C)CC[C@@]2(CCNC(=O)c2ccc(N3CCC(O)CC3)cc2)CC1=O ; strain: 92HT599 ; cell line: MT-2 ; value: <1 µM
COP(=O)(c1cc(C)cc(CCC#N)c1)c1c(C(N)=O)[nH]c2ccc(Cl)cc12 ; strain: NL4-3 ; changes: Y181C ; cell line: MT-4 ; value: 0.0036 µM
Cc1ccc(-c2nc3ccc(CNC(=O)C[C@@]45CC[C@]6(C)[C@H](CC[C@@H]7[C@@]8(C)CC[C@H](OC(=O)[C@H]9C[C@@H](C(=O)O)C9(C)C)C(C)(C)[C@@H]8CC[C@]76C)C4=C(C(C)C)C(=O)C5)cc3[nH]2)cn1 ; strain: 92HT599 ; cell line: MT-2 ; value: <1 µM
COCCOc1cc(Cl)ccc1C(=O)NC(C)(C)C(=O)N[C@@]12CC[C@]3(C)[C@H](CC[C@@H]4[C@@]5(C)CC[C@H](OC(=O)[C@H]6C[C@@H](C(=O)O)C6(C)C)C(C)(C)[C@@H]5CC[C@]43C)C1=C(C(C)C)C(=O)C2 ; strain: 92HT599 ; cell line: MT-2 ; value: <0.003 µM

3 of the rows above, restated:

{"smiles": "CC(C)C1=C2[C@H]3CC[C@@H]4[C@@]5(C)CC[C@H](OC(=O)[C@H]6C[C@@H](C(=O)O)C6(C)C)C(C)(C)[C@@H]5CC[C@@]4(C)[C@]3(C)CC[C@@]2(NC(=O)C(C)(C)NC(=O)c2ccc(Cl)cc2OCCN2CCCC2)CC1=O", "strain": "92HT599", "cell line": "MT-2", "value": "<0.003 µM"}
{"smiles": "COc1ccc(/C=C/C(=O)O[C@@]23[C@H](O)[C@@H](C)[C@@]4(O)[C@@H](C=C(CO)C[C@]5(O)C(=O)C(C)=C[C@@H]45)[C@@H]2C3(C)C)cc1OC(C)=O", "strain": "IIIB", "cell line": "C8166", "value": "9.54 µM"}
{"smiles": "CC(C)C1=C2[C@H]3CC[C@@H]4[C@@]5(C)CC[C@H](OC(=O)[C@H]6C[C@@H](C(=O)O)C6(C)C)C(C)(C)[C@@H]5CC[C@@]4(C)[C@]3(C)CC[C@@]2(CCNC(=O)c2ccc(N3CCC(O)CC3)cc2)CC1=O", "strain": "92HT599", "cell line": "MT-2", "value": "<1 µM"}